Key:
[1] = system: A431 tumor (human epidermal carcinoma xenograft); experiment: A431 xenograft mouse tumor model, tumor volume; assay type: in vivo, Balb/c nude mice
Procedure: Female Balb/c nude mice were injected subcutaneously with a suspension of human A431 tumor cells. Under the skin of the mice, a human epidermal carcinoma developed in the xenograft animal tumor model. After injection of the tumor cells, the xenograft tumor was allowed to develop to a size of approximately 170-180 mm^3. The A431 tumor cells have the following characteristics: high EGFR expressors, medium CD71 expressors, low HER2 expressors.
In Table A, the results of the treatment of control mice and tumor-bearing mice are presented. Tumor-bearing mice were treated with the indicated antibodies directed to either human Her2/neu, human EGFR, or human CD71, which are cell-surface receptors on the xenograft tumor. Cetuximab was covalently conjugated with saponin SO1861. […] The ADCs trastuzumab-saporin (covalent conjugate) and anti-0071 mAb (OKT-9, IgG)—saporin (covalent conjugate) were tested for their tumor-attacking efficacy in the mice, measured as tumor volume in time after start of the treatment with the ADCs. The dose of the ADCs was sub-optimal in the tumor model. […]
The mouse study was performed at CrownBio (China) according to standard protocols and procedures. […] Tumor volume was monitored and tumor samples were collected for gene silencing analysis (see below)

[2] = system: SK-BR-3 cells (HER2++); experiment: Cell viability (MTS) assay, SK-BR-3 cells; assay type: cell-based, human; conditions: substance alone (control)

Substance	outcome (death/euthanasia or survival) ([1]; Table A)	tumor size (volume) ([1]; sub-optimal dose of the ADCs, start approximately 170-180 mm^3) [mm^3]	cell killing activity [2]
Cetuximab-SO1861 (covalent conjugate): saponin-EMCH covalently coupled to reduced cysteines of Cetuximab	death/euthanasia	2000	
trastuzumab-(L-SO1861)^3,8: trastuzumab with labile conjugated SO1861, DAR 3,8			not observed
